Results of unrelated studies side by side (data: NIAID ChemDB).

All rows: growth or infection tests; agent: Reovirus; read by: cytopathic effect; measure: EC50

ECn is the concentration giving n% inhibition of infection, replication or growth. Lines come from different laboratories, so protocols vary. An empty or dashed field is not shown.

structure | cells | strain or isolate | value
NC(=O)c1c[se]c([C@@H]2O[C@H](CO)[C@@H](O)[C@H]2O)n1 | VERO | TYPE 3/ABNEY | 1 µg/mL
CC(C)[Si]1(C(C)C)OC[C@H]2O[C@@H](n3cnc4cc(Cl)c(Cl)cc43)[C@H](O)[C@H]2O[Si](C(C)C)(C(C)C)O1 | HeLa | TYPE 1 | >10 µg/mL
Nc1cc(OC[C@H](CO)OCP(=O)(O)O)nc(N)n1 |  | TYPE 1 | >15 µM
Nc1nc2c(nnn2C[C@H]2CC[C@@H](CO)C2)c(=O)[nH]1 | VERO | TYPE 1 | >200 µg/mL
NC(=O)c1ccnc([C@@H]2O[C@H](CO)[C@@H](O)[C@H]2O)c1 | VERO | TYPE 1 | >400 µg/mL
Nc1cc(OCCOCP(=O)(O)O)nc(N)n1 |  | TYPE 1 | >190 µM
Nc1ncnc2c1ccn2[C@@H]1C[C@H](CO)[C@@H](O)[C@H]1O | VERO | TYPE 1 | 4 µg/mL
OCCOC([C@H](O)CO)n1cnc2cc(Cl)c(Cl)cc21 | HeLa | TYPE 1 | >200 µg/mL
Nc1ncnc2c1ncn2C[C@@H](O)[C@H](O)C(=O)O | VERO | TYPE 1 | 100 µg/mL
OC[C@H]1O[C@@H](n2cnc3cc(Cl)c(Cl)cc32)[C@@H](O)[C@H]1O | HeLa | TYPE 1 | >100 µg/mL
Nc1ccn([C@@H]2C[C@H](CO)[C@@H](O)[C@H]2O)c(=O)n1 | VERO | TYPE 1 | 0.7 µg/mL
COC(C)c1cn([C@@H]2O[C@H](CO)[C@@H](O)[C@H]2O)c2ncnc(N)c12 | VERO | TYPE 1 | 1 µg/mL
Nc1nccc2c1ncn2[C@@H]1C=C[C@@H](O)[C@H]1O | VERO | TYPE 1 | 2 µg/mL
O=[N+]([O-])c1cc(Cl)c(Cl)cc1[N+](=O)[O-] | HeLa | TYPE 1 | >4 µg/mL
Nc1nccc2c1ncn2[C@@H]1C[C@H](CO)[C@@H](O)[C@H]1O | VERO | TYPE 1 | 1 µg/mL
Nc1ncnc2c1ncn2C[C@H](O)CO | VERO | TYPE 1 | 2 µg/mL
Nc1nccc2c1ncn2[C@@H]1C[C@H](CO)[C@@H](O)[C@H]1O | VERO | TYPE 1 | 0.7 µg/mL
O[C@H]1[C@@H](O)COC(n2cnc3cc(Cl)c(Cl)cc32)[C@@H]1O | HeLa | TYPE 1 | >300 µg/mL
Nc1nccc2c1ncn2[C@@H]1C[C@H](CO)[C@@H](O)[C@H]1O | VERO | TYPE 1 | 2 µg/mL
Nc1nccc2c1ncn2[C@@H]1C[C@H](CO)[C@@H](O)[C@H]1O | VERO | TYPE 1 | 1 µg/mL
O=c1[nH]c(=O)n([C@H]2C[C@H](O)[C@@H](CO)O2)cc1/C=C/Br | VERO | TYPE 1 | >400 µg/mL
Nc1ncnc2c1ncn2C[C@@H](CO)OCP(=O)(O)O |  | TYPE 1 | >50 µM
Nc1nccc2c1ncn2[C@@H]1C[C@H](CO)[C@@H](O)[C@H]1O | VERO | TYPE 1 | 1 µg/mL
Nc1nc(N)c2ncn(C[C@H]3CC[C@@H](CO)C3)c2n1 | VERO | TYPE 1 | >200 µg/mL

Repeating the final 2 entries:

structure,cells,strain or isolate,value
Nc1nccc2c1ncn2[C@@H]1C[C@H](CO)[C@@H](O)[C@H]1O,VERO,TYPE 1,1 µg/mL
Nc1nc(N)c2ncn(C[C@H]3CC[C@@H](CO)C3)c2n1,VERO,TYPE 1,>200 µg/mL